Pooled drug test results. Numbers come from NIAID ChemDB, via PubChem.

Common to all: growth or infection tests; species: Candida albicans; endpoint: MIC

Blank or dashed fields: not listed here. Rows are shuffled and stem from different studies.

compound | strain or isolate | read by | result
Cc1ccc(N2NOC(=O)C2S(=O)(=O)Nc2ccc(-n3c(-c4cccc([N+](=O)[O-])c4)nc4ccccc4c3=O)cc2)cc1 | MTCC 227 | broth dilution | 500 µg/mL
O=C1C(=Nc2ccc(Cc3ccc(N=C4C(=O)N(Cc5ccccc5)c5ccccc54)cc3)cc2)c2ccccc2N1Cc1ccccc1 | CIP 1180-79 | - | <50 µg/mL
CSc1ccc2c(c1)C(N1CCN(C)CC1)Cc1ccccc1S2 | - | broth dilution | 64 µg/mL
Clc1ccccc1C(c1ccccc1)(c1ccccc1)n1ccnc1 | ATCC 2091 | - | 1.25 µg/mL
COc1ccc2ccc(=O)oc2c1 | ATCC 14053 | - | 500 µg/mL
CCCCNC(=O)c1cc(C(F)(F)F)ccc1SSc1ccc(C(F)(F)F)cc1C(=O)NCCCC | ATCC 2091 | - | 40 µg/mL
CN1CCC2=C(CCCC2CCc2ccc(Cl)c(Cl)c2)C1 | C316 | - | 16 µg/mL
CSc1ccc2c(c1)N(CCC1CCCCN1C)c1ccccc1S2 | - | broth dilution | 64 µg/mL
O=C1C(=Nc2ccc(Oc3ccc(N=C4C(=O)N(Cc5ccccc5)c5ccccc54)cc3)cc2)c2ccccc2N1Cc1ccccc1 | CIP 1180-79 | - | <50 µg/mL
C/C=C/C(C)=C/C(C)C(=O)CC1CC(CC(N)=O)CC(=O)O1 | IFO 1060 | - | >100 µg/mL
CCCCn1sc2cc(C(F)(F)F)ccc2c1=O | ATCC 2091 | - | 7.5 µg/mL
CCN(CC)CCOc1ccc(C(=C(Cl)c2ccccc2)c2ccccc2)cc1 | - | broth dilution | 64 µg/mL
Cc1ccc(N2NOC(=O)C2S(=O)(=O)Nc2nc(-c3ccc(Br)cc3)cs2)cc1 | MTCC 227 | broth dilution | 250 µg/mL
Cc1ccc(Sc2nc3ccc(C)cc3cc2C2C(C#N)=C(N)Oc3cc(C)oc(=O)c32)cc1 | MTCC 227 | broth dilution | 500 µg/mL
Cc1ccc(N2NOC(=O)C2S(=O)(=O)Nc2nc3ccc(Cl)cc3s2)cc1 | MTCC 227 | broth dilution | 1000 µg/mL
Cc1ccc2nc(Sc3ccccc3)c(C3C(C#N)=C(N)Oc4c3c(=O)oc3ccccc43)cc2c1 | MTCC 227 | broth dilution | 250 µg/mL
CN1CCC2=C(CCCC2CCc2cccc(Cl)c2)C1 | 2005E | - | 8 µg/mL
COc1c2ccoc2cc2oc(=O)ccc12 | ATCC 14053 | - | 250 µg/mL
O=C1NCN(c2ccccc2)C12CCN(CCCC(c1ccc(F)cc1)c1ccc(F)cc1)CC2 | - | broth dilution | >128 µg/mL
COc1ccc2nc(Sc3ccc(C)cc3)c(C3C(C#N)=C(N)Oc4c3c(=O)oc3ccccc43)cc2c1 | MTCC 227 | broth dilution | 1000 µg/mL
Cc1ccc(N2NOC(=O)C2S(=O)(=O)Nc2nc(-c3ccc(Cl)cc3Cl)cs2)cc1 | MTCC 227 | broth dilution | 1000 µg/mL
C=C[C@H]([C@H](O)C(=C)C)C(C)(C)O | - | - | 75 µg/mL
Clc1cccc(CCC2CCCc3cnccc32)c1 | C316 | - | 31 µg/mL
Cc1ccc(Sc2nc3ccccc3cc2C2C(C#N)=C(N)Oc3cc(C)oc(=O)c32)cc1 | MTCC 227 | broth dilution | 1000 µg/mL
CCOC(=O)C1C(c2ccc(Cl)cc2)CC(c2ccccc2)=CC12NCCN2 | CaCYP51 | - | 50 µg/mL
CC(C)COCC(CN(Cc1ccccc1)c1ccccc1)N1CCCC1 | - | broth dilution | >128 µg/mL
CCCCn1sc2cccc(C(F)(F)F)c2c1=O | ATCC 2091 | - | 30 µg/mL
COc1ccc(CCC2(CCc3ccc(OC)cc3)CCCc3cnccc32)cc1 | C316 | - | >125 µg/mL
CCCCn1sc2ccc(C(F)(F)F)cc2c1=O | ATCC 2091 | - | 40 µg/mL
COc1ccc(CCC2CCCc3cnccc32)cc1OC | C316 | - | >125 µg/mL
O=c1ccc2cc(O)c(O)cc2o1 | ATCC 14053 | - | 500 µg/mL
O=c1[nH]sc2ccc(C(F)(F)F)cc12 | ATCC 2091 | - | 10 µg/mL
O=[N+]([O-])c1cnc(/C=C/c2ccccn2)s1 | E-3 | - | 31 µg/mL
CCOC(=O)C1C(c2ccc(C)cc2)CC(c2ccc(Cl)cc2)=CC12NCCN2 | - | - | 12.5 µg/mL
Cc1ccc(N2NOC(=O)C2S(=O)(=O)Nc2ccc(-n3c(-c4cccc(Cl)c4)nc4ccccc4c3=O)cc2)cc1 | MTCC 227 | broth dilution | 1000 µg/mL
O=C1Nc2ccccc2C1=Nc1cccc(Cc2cccc(N=C3C(=O)Nc4ccccc43)c2)c1 | CIP 1180-79 | - | <50 µg/mL
Cc1ccc(N2NOC(=O)C2S(=O)(=O)Nc2nc3cc(C)ccc3s2)cc1 | MTCC 227 | broth dilution | 500 µg/mL
CCOC(=O)C1C(c2ccccc2)CC(c2ccccc2)=CC12NCCN2 | CaCYP51 | - | 100 µg/mL
CN1CCN(CCCN2c3ccccc3Sc3ccc(Cl)cc32)CC1 | - | broth dilution | 32 µg/mL
COc1ccc2nc(Sc3ccc(Cl)cc3)c(C3C(C#N)=C(N)Oc4c3c(=O)oc3ccccc43)cc2c1 | MTCC 227 | broth dilution | 500 µg/mL
CC(C)(C)c1ccc(CN(Cc2cccc3ccccc23)n2ccnc2)cc1 | - | - | >200 µM
COc1ccc(-c2cc(=O)c3c(O)c(OC)c(OC)cc3o2)cc1OC | - | - | >100 µg/mL
CN(C)CCC=C1c2ccccc2C=Cc2ccccc21 | - | broth dilution | 64 µg/mL
C[C@@H]1[C@H](O)[C@@H](C)/C=C/C=C/CC/C=C/C=C/C=C/C=C/C(O[C@H]2O[C@H](C)[C@@H](O)[C@H](N)[C@@H]2O)CC2O[C@](O)(CC(O)C(O)CCC(O)CC(O)CC(O)CC(=O)O[C@H]1C)CC(O)C2C(=O)O | MTCC 7315 | - | 150 µg/mL
CCOP(=O)(OCC)OC[C@@H](O)[C@@H](O)[C@H](O)[C@@H](N)CO | ATCC26278 | - | 600 µg/mL
Cc1ccc2nc(Sc3ccccc3)c(C3C(C#N)=C(N)Oc4cc(C)oc(=O)c43)cc2c1 | MTCC 227 | broth dilution | 1000 µg/mL
O=c1[nH]sc2ccc(F)cc12 | ATCC 2091 | - | 30 µg/mL
CN1CCC2=C(CCCC2CCc2ccc(Cl)cc2Cl)C1 | 1208E | - | 62 µg/mL
COc1ccc2nc(Sc3ccccc3)c(C3C(C#N)=C(N)Oc4cc(C)oc(=O)c43)cc2c1 | MTCC 227 | broth dilution | 1000 µg/mL
Cc1ccc(N2NOC(=O)C2S(=O)(=O)Nc2ccc(-n3c(-c4ccccc4)nc4ccccc4c3=O)cc2)cc1 | MTCC 227 | broth dilution | 1000 µg/mL
CN1CCC2=C(CCCC2CCc2ccc(F)cc2)C1 | C316 | - | 16 µg/mL
C[C@@H](c1nc(-c2ccc(C#N)cc2)cs1)[C@](O)(Cn1cnnc1)c1ccc(F)cc1F | Isogenic isolate 9 (25X) | - | ≤0.008 µg/mL
O=c1ccc2cc(I)ccc2o1 | ATCC 14053 | - | 500 µg/mL
C(=C\c1ccccc1)/CN(Cc1cccc2ccccc12)n1ccnc1 | - | - | >200 µM
CCOC(=O)C1C(c2ccc(OC)cc2)CC(c2ccccc2)=CC12NCCN2 | CaCYP51 | - | 25 µg/mL
CN1CCC2=C(CCCC2CCc2c(Cl)cccc2Cl)C1 | 2381E | - | 16 µg/mL
O=[N+]([O-])c1cnc(/C=N/O)s1 | E-3 | - | 125 µg/mL
CCCCNC(=O)c1ccc(C(F)(F)F)cc1SSc1cc(C(F)(F)F)ccc1C(=O)NCCCC | ATCC 2091 | - | 7.5 µg/mL
O=C1Nc2ccccc2C1=Nc1ccc(Oc2cccc(N=C3C(=O)Nc4ccccc43)c2)cc1 | CIP 1180-79 | - | <50 µg/mL

The last 4 rows once more:

compound | strain or isolate | read by | result
CN1CCC2=C(CCCC2CCc2c(Cl)cccc2Cl)C1 | 2381E | - | 16 µg/mL
O=[N+]([O-])c1cnc(/C=N/O)s1 | E-3 | - | 125 µg/mL
CCCCNC(=O)c1ccc(C(F)(F)F)cc1SSc1cc(C(F)(F)F)ccc1C(=O)NCCCC | ATCC 2091 | - | 7.5 µg/mL
O=C1Nc2ccccc2C1=Nc1ccc(Oc2cccc(N=C3C(=O)Nc4ccccc43)c2)cc1 | CIP 1180-79 | - | <50 µg/mL